Results of unrelated studies side by side (data: NIAID ChemDB).

Common to all: whole-cell or culture tests; species: Rhinovirus; measure: inhibition

Inhibition is in % at the dose shown (toxicity tests: loss of growth or viability).

smiles | strain or isolate | tested at | cells | read by | result
Cc1cc(-c2ccc(N=Nc3ccc4c(S(=O)(=O)O)cc(S(=O)(=O)O)c(N)c4c3O)c(C)c2)ccc1N=Nc1ccc2c(S(=O)(=O)O)cc(S(=O)(=O)O)c(N)c2c1O |  | 5 µg/mL | Human amnion AV3 cells | cytopathic effect | 0%
CN(C)c1nc(C(F)(F)F)nc2c1ncn2Cc1ccccc1 | Serotype 5 | 8 µM | M-HELA | plaque count | 33%
COc1cc(-c2ccc(N=Nc3ccc4c(S(=O)(=O)O)cc(S(=O)(=O)O)c(N)c4c3O)c(OC)c2)ccc1N=Nc1ccc2c(S(=O)(=O)O)cc(S(=O)(=O)O)c(N)c2c1O |  | 10 µg/mL | Human embryonic lung cells | cytopathic effect | 0%
CN(C)c1ccc(Cn2cnc3c(N(C)C)nc(C(F)(F)F)nc32)cc1 | Serotype 14 | 8 µM | M-HELA | plaque count | 46%
O=C(O)Cc1csc(/N=C2\SC[C@@H]3Cc4ccccc4CN23)n1 | Serotype 31 | 60 µg/mL | MRC-5 | cytopathic effect | 80–100%
FC(F)(F)c1cccc(C2CCN(c3ccc(Br)nn3)C2)c1 | 17 serotypes | 0.475 µg/mL |  |  | 53%
O=C(O)c1cc(S(=O)(=O)[O-])ccc1O |  | 5 µg/mL | Human embryonic lung cells | cytopathic effect | 0%
CN(C)c1nc(C(F)(F)F)nc2c1ncn2Cc1ccc(Cl)c(N)c1 | Serotype 13 | 8 µM | M-HELA | plaque count | 18%
FC(F)(F)c1cccc(C2CCN(c3ccc(Cl)nn3)C2)c1 | 17 serotypes | 17 µg/mL |  |  | 71%
CN(C)c1nc(C(F)(F)F)nc2c1ncn2Cc1ccc([N+](=O)[O-])cc1 | Serotype 13 | 8 µM | M-HELA | plaque count | 13%
CCOC(=O)c1csc(N2CCN(Cc3cc(C)ccc3C)CC2)n1 | 100 serotypes | 0.2 µg/mL |  |  | 18%
O=C(O)c1ccc(S(=O)(=O)[O-])cc1C(=O)O |  | 50 µg/mL | Human embryonic lung cells | cytopathic effect | 0%
CS(=O)(=O)c1ccc2c(c1)CCC(c1ccc(Cl)c(Cl)c1)O2 | 100 serotypes | 32 µg/mL |  |  | 71%
Cc1cc(-c2ccc(N=Nc3c(N)c(S(=O)(=O)O)cc4cc(S(=O)(=O)O)ccc34)c(C)c2)ccc1N=Nc1c(N)ccc2cc(S(=O)(=O)O)ccc12 |  | 10 µg/mL | Human embryonic lung cells | cytopathic effect | 20%
Cc1cccc(C2=CCN(c3ccc(Cl)nn3)CC2)c1 | 17 serotypes | 0.021 µg/mL |  |  | 18%
N#Cc1cc([N+](=O)[O-])ccc1Oc1ccc(Cl)c(Cl)c1 | TYPE 1A | 0.19 µg/mL | VERO |  | 34%
CCOc1cc(O)c(C(=O)/C=C/c2ccc(OC)cc2)c(OC)c1 | 17 serotypes | 0.036 µg/mL |  |  | 18%
CN(C)c1nc(C(F)(F)F)nc2c1ncn2Cc1ccc(Cl)cc1Cl | Serotype 31 | 8 µM | M-HELA | plaque count | 28%

Repeating the first 2 entries:

smiles | strain or isolate | tested at | cells | read by | result
Cc1cc(-c2ccc(N=Nc3ccc4c(S(=O)(=O)O)cc(S(=O)(=O)O)c(N)c4c3O)c(C)c2)ccc1N=Nc1ccc2c(S(=O)(=O)O)cc(S(=O)(=O)O)c(N)c2c1O |  | 5 µg/mL | Human amnion AV3 cells | cytopathic effect | 0%
CN(C)c1nc(C(F)(F)F)nc2c1ncn2Cc1ccccc1 | Serotype 5 | 8 µM | M-HELA | plaque count | 33%

a–b is a range or a potency band. Blank or dashed fields: not listed here. Lines come from different laboratories, so protocols vary.